Anti-infective test results gathered from many reports (values: NIAID ChemDB through PubChem).

All rows: growth or infection tests; species: HIV-1

ECn: concentration that inhibits the pathogen or its effect by n%. Blank or dashed fields: not listed here. Rows are shuffled and stem from different studies.

structure	conditions	read-out	method	strain or isolate	changes	cells	result
N#Cc1ccc(Nc2nc(Oc3c(Br)cc(Br)cc3Br)ncc2NC(=O)C(F)(F)F)cc1		EC50	MTT	IIIB		MT-4	0.0346 µM
Cc1cn([C@H]2C[C@H](N=[N+]=[N-])[C@@H](CO)O2)c(=O)[nH]c1=O		EC50	p24	IIIB		PBMC	0.02 µM
CCc1cccc2c1nc(-c1c(F)cccc1F)n2Cc1c(F)cccc1F		EC50	cytopathic effect / MTT		RT-K101E	MT-4	2.82 µM
O=C1N(Cc2ccc(CO)cc2)[C@H](Cc2ccccc2)[C@H](O)[C@@H](O)[C@@H](Cc2ccccc2)N1Cc1ccc(CO)cc1		EC50	p24	9156 clinical isolate		PBMC	0.09 µM
Cc1cccc(C)c1OCC(=O)N[C@@H](Cc1ccccc1)[C@@H](O)C[C@H](Cc1ccccc1)NC(=O)[C@H](C(C)C)N1CCCNC1=O		EC50	RT activity	052-52 PI-resistant	PR-L10R M46I L63P A71V V82T I84V	PBMC	0.685 µM
CC(=O)Nc1cccc2c1nc(-c1c(F)cccc1F)n2Cc1c(F)cccc1F		EC50	cytopathic effect / MTT		RT-V108I	MT-4	2.82 µM
Cc1cn([C@H]2C[C@H](N=[N+]=[N-])[C@@H](CO)O2)c(=O)[nH]c1=O		EC50		IIIB		MT-4	0.01 µM
Cc1ccnc2c1NC(=O)c1cccnc1N2C1CC1		EC50	cytopathic effect	IIIB	RT-V106A	CEM	0.8 µg/mL
NC(=O)C(c1ccccc1)(c1ccccc1)[C@H]1CCCN(CCc2ccc3c(c2)CCO3)C1		EC50	cytopathic effect / XTT	IIIB		MT-2	>32 µM
CC(C)Nc1cccnc1N1CCN(C(=O)c2cc3cc(NS(C)(=O)=O)ccc3[nH]2)CC1		EC50	cytopathic effect	IIIB	RT-L100I	CEM	0.46 µg/mL
CCC(C)Oc1cc(N)nc(Sc2ccccc2OC)n1		EC50	cytopathic effect / MTT	IIIB		MT-4	>71 µM
COc1ccc(C[C@H](NC(=O)c2cccc(O)c2C)[C@H](O)C(=O)N2CSC(C)(C)[C@H]2C(=O)NCc2ccccc2C)cc1		EC50	RT activity	052-52 PI-resistant	PR-L10R M46I L63P A71V V82T I84V	PBMC	0.033 µM
Fc1cccc(F)c1Cn1c(-c2c(F)cccc2F)nc2c(Br)cccc21		EC50	cytopathic effect / MTT		RT-L100I	MT-4	0.3 µM
CCC(C)Oc1cc(N)nc(Sc2ccc(N)cc2)n1		EC50	cytopathic effect / MTT	IIIB		MT-4	>200 µM
O=C1CCCN1CCCN1CC(=O)N2CC(N(CCOc3ccccc3)S(=O)(=O)c3cccc(F)c3)C[C@H]2C1=O		EC50	β-galactosidase	BaL		HeLaP4	0.197 µM
N#Cc1ccc(Nc2nc(Oc3c(Cl)cc(Cl)cc3Cl)ncc2NC(=O)C(F)(F)F)cc1		EC50	MTT	IIIB		MT-4	0.0636 µM
Nc1ccn([C@H]2CC[C@@H](CO)O2)c(=O)n1		EC50	RT activity	IIIB		PBL(PHA STIM.) + PBL	0.23 ± 0.29 µM
Cc1cn([C@H]2C[C@H](N=[N+]=[N-])[C@@H](CO)O2)c(=O)[nH]c1=O		EC50	cytopathic effect / MTT	NNRTI-resistant (RT K103N Y181C)	RT-K103N Y181C	MT-4	0.07 µM
Cc1ccnc2c1NC(=O)c1cccnc1N2C1CC1		EC50	cytopathic effect / XTT	IIIB		MT-2	0.1 µM
Cc1cn([C@H]2C[C@H](N=[N+]=[N-])[C@@H](COC(=O)c3ccncc3)O2)c(=O)[nH]c1=O		EC50	p24	IIIB		MT-2	0.075 µM
C[C@]12CC[C@H](O)C[C@@H]1CC[C@@H]1[C@@H]2CC[C@]2(C)C(=O)[C@H](Br)C[C@@H]12		EC50	RT activity	LAV		PBMC	3.7 µM
CCCOc1ccc(C[C@H](NC(=O)c2cccc(O)c2C)[C@H](O)C(=O)N2CSC(C)(C)[C@H]2C(=O)NCc2ccccc2C)cc1	15% FBS	EC50	cytopathic effect / XTT	IIIB		CEM	0.0032 µM
CCC(C)Oc1cc(N)nc(Sc2cccc(N)c2)n1		EC50	cytopathic effect / MTT	IIIB		MT-4	>112 µM
Fc1cccc(F)c1[C@@H]1SCc2nc3ccccc3n21		EC50	cytopathic effect / MTT	RF		MT-4	0.4 µg/mL
CC(C)=CCOc1cc(NC(=S)c2ccsc2C)ccc1Cl		EC50	cytopathic effect	IIIB	RT-Y181C	CEM	0.014 µg/mL
Nc1cccc2c1nc(-c1c(F)cccc1F)n2Cc1c(F)cccc1F		EC50	cytopathic effect / MTT		RT-V179D	MT-4	0.3 µM
NC(=O)C(c1ccccc1)(c1ccccc1)[C@H]1CCCN(CCc2ccc(Cl)cc2)C1		EC50	cytopathic effect / XTT	NL4-3		MT-2	0.55 µM
CC(=O)O[C@@]12C[C@@H](C)[C@@]3(O)[C@@H](C=C(CO)C[C@]4(O)C(=O)C(C)=C[C@@H]34)[C@@H]1C2(C)C		EC50	cytopathic effect / MTT	NRTI resistant	RT K70R T215Y 69SS A62V E79K V118I M184V E203K L210W	MT-4	0.06 µg/mL
CC[C@H](C)[C@H](NC(=O)C(=O)OC[C@H]1O[C@@H](n2cc(C)c(=O)[nH]c2=O)C[C@@H]1N=[N+]=[N-])C(=O)O		EC50	p24	IIIB		MT-2	0.3 µM
Cc1cc(Br)cc(C)c1Oc1ncc([N+](=O)[O-])c(Nc2ccc(C#N)cc2)n1		EC50	MTT	RES056		MT-4	≥202 µM
CC(C)Nc1cccnc1N1CCN(C(=O)c2cc3cc(NS(C)(=O)=O)ccc3[nH]2)CC1		EC90	p24	IIIB		H9	0.045 µM
N#Cc1ccc(Nc2nc(Oc3c(Cl)cccc3Cl)ncc2N)cc1		EC50	MTT	IIIB		MT-4	0.0234 µM
Cc1cn([C@H]2C[C@H](N=[N+]=[N-])[C@@H](COC(=O)C(=O)N[C@@H](CC(C)C)C(=O)O)O2)c(=O)[nH]c1=O		EC50	p24	IIIB		PBMC	0.01 µM
c1cc(CN2CCCNCCNCCCNCC2)ccc1CN1CCCNCCNCCCNCC1		EC50	β-galactosidase	BaL		HeLaP4	>1 µM
O=c1[nH]c(=O)n([C@H]2C[C@H](F)[C@@H](CO)O2)cc1Cl		EC50	cytopathic effect	IIIB		MT-4	1.8 ± 0.4 µM
C=C(C)[C@]12C[C@@H](COC(=O)c3ccccc3)[C@@]34O[C@]5(O[C@@H]1[C@@H]3[C@@H]1O[C@]1(CO)[C@@H](O)[C@@]1(O)[C@H]4[C@H]([C@H](C)[C@@H]1OC(=O)c1ccccc1)[C@H](C)CCCCCC[C@H]5O)O2		EC50	p24 / ELISA	NL4-3		PBMC	>1 µM
CCC(C)Oc1nc(N)cc(S(=O)(=O)c2cc(C)cc(C)c2)n1		EC50	cytopathic effect / MTT	IIIB		MT-4	>33 µM
COc1cccc(C[C@H](NC(=O)c2cccc(O)c2C)[C@H](O)C(=O)N2CSC(C)(C)[C@H]2C(=O)NCc2c(C)cccc2C)c1		EC50	RT activity	052-52 PI-resistant	PR-L10R M46I L63P A71V V82T I84V	PBMC	<0.001 µM
Cc1occc1C(=S)Nc1ccc(Cl)c(/C=N/OC(C)(C)C)c1		EC50	cytopathic effect	IIIB		CEM	0.016 µg/mL
Cc1c(O)cccc1C(=O)N[C@@H](CSc1ccccc1)[C@H](O)CN1C[C@H]2CCCC[C@H]2C[C@H]1C(=O)NC(C)(C)C		EC50	RT activity	1026-40 PI-resistant	PR-L10I M46I I54V L63P A71V V82A L90M	PBMC	0.335 µM
Cc1cn([C@H]2C[C@H](N=[N+]=[N-])[C@@H](COC(=O)NCCSC(=O)OC[C@H]3O[C@@H](n4cc(C)c(=O)[nH]c4=O)C[C@@H]3N=[N+]=[N-])O2)c(=O)[nH]c1=O		EC50	cytopathic effect / MTT	NNRTI-resistant (RT K103N Y181C)	RT-K103N Y181C	MT-4	5 µM
Cc1ccccc1CNC(=O)[C@H]1N(C(=O)[C@@H](O)[C@H](Cc2ccccc2)NC(=O)c2cccc(O)c2C)CSC1(C)C		EC50	RT activity	IIIB		PBMC	0.017 µM
Cc1cn([C@H]2C[C@H](N=[N+]=[N-])[C@@H](COC(=O)NCCSC(=O)OC[C@@H]3CC[C@H](n4cnc5c(=O)[nH]cnc54)O3)O2)c(=O)[nH]c1=O		EC50	cytopathic effect / MTT	NNRTI-resistant (RT K103N Y181C)	RT-K103N Y181C	MT-4	1.2 µM

For reference, 6 entries again:

structure,conditions,read-out,method,strain or isolate,changes,cells,result
O=C1N(Cc2ccc(CO)cc2)[C@H](Cc2ccccc2)[C@H](O)[C@@H](O)[C@@H](Cc2ccccc2)N1Cc1ccc(CO)cc1,,EC50,p24,9156 clinical isolate,,PBMC,0.09 µM
Cc1ccnc2c1NC(=O)c1cccnc1N2C1CC1,,EC50,cytopathic effect / XTT,IIIB,,MT-2,0.1 µM
Cc1cn([C@H]2C[C@H](N=[N+]=[N-])[C@@H](CO)O2)c(=O)[nH]c1=O,,EC50,cytopathic effect / MTT,NNRTI-resistant (RT K103N Y181C),RT-K103N Y181C,MT-4,0.07 µM
N#Cc1ccc(Nc2nc(Oc3c(Cl)cc(Cl)cc3Cl)ncc2NC(=O)C(F)(F)F)cc1,,EC50,MTT,IIIB,,MT-4,0.0636 µM
O=C1CCCN1CCCN1CC(=O)N2CC(N(CCOc3ccccc3)S(=O)(=O)c3cccc(F)c3)C[C@H]2C1=O,,EC50,β-galactosidase,BaL,,HeLaP4,0.197 µM
Cc1cccc(C)c1OCC(=O)N[C@@H](Cc1ccccc1)[C@@H](O)C[C@H](Cc1ccccc1)NC(=O)[C@H](C(C)C)N1CCCNC1=O,,EC50,RT activity,052-52 PI-resistant,PR-L10R M46I L63P A71V V82T I84V,PBMC,0.685 µM